A mixed list of measured activities; the numbers were collected in NIAID ChemDB.

Common to all: enzyme or target tests; agent: Plasmodium falciparum; read-out: IC50

ICn: concentration for n% inhibition.

compound | strain | protein | method | value
CC1=CC(=O)c2ccccc2C1=O |  | Glutathione reductase |  | 42 µM
CCCNOCC1=C(Nc2ccc3ccccc3c2)SCC1=O |  | Dihydroorotate dehydrogenase |  | >50 µM
CC(C)C[C@H](NC(=O)C1CCC2(CC1)OOC1(CCCCC1)OO2)C(=O)N[C@H](/C=C/S(=O)(=O)c1ccccc1)CCc1ccccc1 |  | Falcipain-2 | fluorescence | 0.9648 µM
O=C(CN1C(=O)CSC1=O)N1CCN(c2ccccc2)CC1 |  | Falcipain-2 | fluorescence | >50 µM
O=C1C(=O)c2ccccc2C(O)=C1C1CCC(c2ccc(Cl)cc2)CC1 |  | Glutathione reductase |  | >25 µM
CC(C)C[C@H](NCC1CCC2(CC1)OOC1(OO2)C2CC3CC(C2)CC1C3)C(=O)N[C@H](/C=C/S(=O)(=O)c1ccccc1)CCc1ccccc1 |  | Falcipain-2 | fluorescence | 6.672 µM
Cc1ccc(C=C2SC(=O)N(CC(=O)N3CCN(c4ccccc4)CC3)C2=O)cc1 |  | Falcipain-2 | fluorescence | 45.71 µM
CCOC(=O)C1=C(O)CSC1=Nc1cccc(C(F)(F)F)c1 |  | Dihydroorotate dehydrogenase |  | >50 µM
N#Cc1cccc(NC(=O)CP(=O)(O)O)c1 |  | PfDXR | absorbance | >500 µM
O=C(CN1C(=O)SC(=Cc2ccccc2)C1=O)N1CCN(c2ccccc2)CC1 |  | Falcipain-2 | fluorescence | 38.8 µM
Cc1ccc(N=C2SCC(O)=C2C(=O)O)cc1C |  | Dihydroorotate dehydrogenase |  | >50 µM
O=C1C=C(C(F)F)C(=O)c2ccccc21 |  | Glutathione reductase |  | 22.8 µM
O=C(CCC(c1ccccc1)P(=O)(O)O)NO |  | PfDXR | absorbance | 0.0116 µM
O=C(CN1C(=O)SC(=Cc2ccccc2Cl)C1=O)N1CCN(c2ccccc2)CC1 |  | Falcipain-2 | fluorescence | 15.8 µM
C=C1C(=O)C[C@@H]2/C=C(/COC(C)=O)CC/C=C(/C=O)C[C@@H](OC(=O)C(C)CC)[C@@H]12 | 3D7 | Lactate dehydrogenase |  | 1.2 µg/mL
COc1cc(OC)c(C=C2SC(=O)N(C)C2=O)c(OC)c1 |  | Falcipain-2 | fluorescence | >50 µM
CC(=O)N(O)CCCP(=O)(O)O |  | PfDXR | absorbance | 0.0153 µM
COc1cc(OC)c(C=C2SC(=O)N(CC(=O)N3CCN(c4cccc(Cl)c4)CC3)C2=O)c(OC)c1 |  | Falcipain-2 | fluorescence | 16.25 µM
CCOP(=O)(CCC(=O)Nc1cccc(CO)c1)OCC |  | PfDXR | absorbance | >500 µM
COc1cccc(CN2C(=O)SC(=Cc3c(OC)cc(OC)cc3OC)C2=O)c1 |  | Falcipain-2 | fluorescence | >50 µM
CC1(C)OC(=O)C(=Cc2ccccc2[N+](=O)[O-])C(=O)O1 |  | Histidine-rich protein 2 | ELISA | 36.63 µM
CC(C)C[C@H](NC(=O)C1CCC(=O)CC1)C(=O)N[C@H](/C=C/S(=O)(=O)c1ccccc1)CCc1ccccc1 |  | Falcipain-2 | fluorescence | 0.0691 µM
CCOC(=O)C1=C(O)CSC1=Nc1ccc(Br)cc1C |  | Dihydroorotate dehydrogenase |  | >50 µM
COc1cc(OC)c(C=C2SC(=O)N(CC(=O)N3CCN(c4ccccc4)CC3)C2=O)c(OC)c1 |  | Falcipain-2 | fluorescence | >50 µM
O=C1C=C(C(F)(F)F)C(=O)c2ccccc21 |  | Glutathione reductase |  | 7 µM

3 of the rows above, restated:

N#Cc1cccc(NC(=O)CP(=O)(O)O)c1 ; protein: PfDXR ; method: absorbance ; value: >500 µM
CC(C)C[C@H](NC(=O)C1CCC2(CC1)OOC1(CCCCC1)OO2)C(=O)N[C@H](/C=C/S(=O)(=O)c1ccccc1)CCc1ccccc1 ; protein: Falcipain-2 ; method: fluorescence ; value: 0.9648 µM
COc1cc(OC)c(C=C2SC(=O)N(C)C2=O)c(OC)c1 ; protein: Falcipain-2 ; method: fluorescence ; value: >50 µM

An empty or dashed field is not shown. Lines come from different laboratories, so protocols vary.